Compound potency records, mixed from different reports. Data source: NIAID ChemDB in PubChem.

Common to all: enzyme or target tests; agent: Hepatitis C virus; target: Nonstructural protein 5B; measure: IC50

An empty or dashed field is not shown. Lines come from different laboratories, so protocols vary. ICn: concentration for n% inhibition. a–b is a range or a potency band.

compound | strain or isolate | mutations | read by | value
O=C1NC(=S)SC1=Cc1ccc(-c2ccc(Cl)c(Cl)c2)o1 | - | - | - | ≤1 µM
C[C@@]1(O)[C@H](O)[C@@H](COP(=O)([O-])OP(=O)([O-])OP(=O)([O-])O)O[C@H]1n1cnc2c(N)nc(N)nc21 | GT1b | S282T | nucleotide incorporation | 3.6 µM
NS(=O)(=O)c1ccc(CCNc2cc(C(=O)Nc3ccc4cn[nH]c4c3)c(F)cc2F)cc1 | - | - | - | 1–10 µg/mL
Cc1ccnc(-c2ccc(C=C3SC(=S)N(c4ccc(C(=O)O)cc4)C3=O)o2)c1 | - | - | - | ≤1 µM
CNC(=O)c1c(-c2ccc(F)cc2)oc2cc(N(CS(C)(=O)=O)OC)c(OCc3cccc(C#N)c3)cc12 | - | - | - | ≤0.5 µM
COc1c(-c2ccc3cc(NS(C)(=O)=O)ccc3c2)cc(-n2ccc(=O)[nH]c2=O)cc1C(C)(C)C | GT 1a-H77 | - | nucleotide incorporation | 0.0028 µM
CNC(=O)c1c(-c2ccc(F)cc2)oc2cc(N(C)S(C)(=O)=O)c(OCC#N)cc12 | - | - | - | ≤0.5 µM
COc1nc(Nc2ccc3[nH]ncc3c2)nc(N2CCC(C(N)=O)CC2)n1 | - | - | - | 1–10 µg/mL
CCN(C1=C(O)CC(CCc2ccc(O)cc2)(C2CCCC2)OC1=O)c1ccccc1 | - | - | - | 1–10 µM
O=C(Nc1ccc2cn[nH]c2c1)c1cc(NCCN2CCOCC2)c(F)cc1F | - | - | - | >10 µg/mL
O=C(O)C(=O)/C=C(\O)c1cccc(NS(=O)(=O)c2cc(Cl)c(Cl)cc2Cl)c1 | - | - | - | 0.25 µM
CNC(=O)c1c(-c2ccc(F)cc2)oc2cc(N3CCOCC3)c(OCc3cc(C)on3)cc12 | - | - | - | ≤0.5 µM
COc1nc(Nc2ccc3cn[nH]c3c2)nc(-n2ccnc2)n1 | - | - | - | >10 µg/mL
O=C(Nc1ccc2cn[nH]c2c1)c1cc(NCCCn2ccnc2)c(F)cc1F | - | - | - | 0.1–1 µg/mL
COCCNc1nc(Nc2ccc3cn[nH]c3c2)nc(OC)n1 | - | - | - | 1–10 µg/mL
COc1cc(OC)c(CCC2(C3CCCC3)CC(O)=C(Sc3cnccn3)C(=O)O2)cc1Cl | - | - | - | <1 µM
CN(C)CCNc1cc(C(=O)Nc2ccc3[nH]ncc3c2)c(F)cc1F | - | - | - | 0.1–1 µg/mL
Nc1ccn([C@H]2CO[C@@H](COP(=O)(O)OP(=O)(O)OP(=O)(O)O)O2)c(=O)n1 | - | - | - | 7.7 µM
COc1nc(Nc2ccc3cn[nH]c3c2)nc(N2CCN(C)CC2)n1 | - | - | - | >10 µg/mL
O=C1NC(=S)S/C1=C/c1ccc(-c2cc(C(F)(F)F)ccc2Cl)o1 | - | - | - | ≤1 µM
CCN(CCO)c1cc(C(=O)Nc2ccc3cn[nH]c3c2)c(F)cc1F | - | - | - | >10 µg/mL
CCOC(=O)N1CCN(c2nc(Nc3ccc4[nH]ncc4c3)nc(OC)n2)CC1 | - | - | - | >10 µg/mL
CCn1nnnc1SC1=C(O)CC(CCc2ccc(OC)cc2)(C2CCCC2)OC1=O | - | - | - | <1 µM
O=C(O)c1ccc(N2C(=O)C(=Cc3ccc(-c4cc([N+](=O)[O-])ccc4Cl)o3)SC2=S)cc1 | - | - | - | ≤1 µM
CC(=O)Nc1cc(C(C)(C)C)c(SC2=C(O)CC(CCc3ccc(O)cc3)(C3CCCCC3)OC2=O)cc1C | - | - | - | >50 µM
COc1nc(Nc2ccc3[nH]ncc3c2)nc(N2CCCC2)n1 | - | - | - | 1–10 µg/mL
COc1ccc(CCC2(C3CCCC3)CC(=O)CC(=O)O2)cc1 | - | - | - | 1–10 µM
CNC(=O)c1c(-c2ccc(F)cc2)oc2cc(NC(C)=O)c(OC(C)C)cc12 | - | - | - | ≤0.5 µM
O=C(O)c1ccc(N2C(=O)C(=Cc3ccc(-c4ccc(C(F)(F)F)cn4)o3)SC2=S)cc1 | - | - | - | ≤1 µM
Cc1cc(SC2=C(O)CC(CCc3ccc(O)cc3)(C3CCCCC3)OC2=O)c(C(C)(C)C)cc1N | - | - | - | 1–10 µM
COc1nc(Nc2ccc3[nH]ncc3c2)nc(N2CCN(CCO)CC2)n1 | - | - | - | 1–10 µg/mL
Cc1cc(SC2=C(O)CC(CCc3ccc(O)cc3)(C3CCCC3)OC2=O)c(C(C)(C)C)cc1NS(=O)(=O)c1ccccc1 | - | - | - | 1–10 µM
CNC(=O)c1c(-c2ccc(F)cc2)oc2cc(N(C)S(=O)(=O)CC3CC3)c(OC)cc12 | - | - | - | ≤0.5 µM
Nc1nc(=O)n([C@@H]2CO[C@H](COP(=O)(O)OP(=O)(O)OP(=O)(O)O)O2)cc1F | - | - | - | 16 µM

5 of the rows above, restated:

compound | strain or isolate | mutations | read by | value
Nc1nc(=O)n([C@@H]2CO[C@H](COP(=O)(O)OP(=O)(O)OP(=O)(O)O)O2)cc1F | - | - | - | 16 µM
O=C1NC(=S)S/C1=C/c1ccc(-c2cc(C(F)(F)F)ccc2Cl)o1 | - | - | - | ≤1 µM
CCN(C1=C(O)CC(CCc2ccc(O)cc2)(C2CCCC2)OC1=O)c1ccccc1 | - | - | - | 1–10 µM
CNC(=O)c1c(-c2ccc(F)cc2)oc2cc(N(CS(C)(=O)=O)OC)c(OCc3cccc(C#N)c3)cc12 | - | - | - | ≤0.5 µM
C[C@@]1(O)[C@H](O)[C@@H](COP(=O)([O-])OP(=O)([O-])OP(=O)([O-])O)O[C@H]1n1cnc2c(N)nc(N)nc21 | GT1b | S282T | nucleotide incorporation | 3.6 µM